Laboratory results from article PMC6336804, “Identification of selective inhibitors of Helicobacter pylori IMPDH as a targeted therapy for the infection” (Scientific Reports, 2019).

Sequences of proteins named here, by UniProt entry; tags and fusion partners are left off.
UniProt P56088, whole entry: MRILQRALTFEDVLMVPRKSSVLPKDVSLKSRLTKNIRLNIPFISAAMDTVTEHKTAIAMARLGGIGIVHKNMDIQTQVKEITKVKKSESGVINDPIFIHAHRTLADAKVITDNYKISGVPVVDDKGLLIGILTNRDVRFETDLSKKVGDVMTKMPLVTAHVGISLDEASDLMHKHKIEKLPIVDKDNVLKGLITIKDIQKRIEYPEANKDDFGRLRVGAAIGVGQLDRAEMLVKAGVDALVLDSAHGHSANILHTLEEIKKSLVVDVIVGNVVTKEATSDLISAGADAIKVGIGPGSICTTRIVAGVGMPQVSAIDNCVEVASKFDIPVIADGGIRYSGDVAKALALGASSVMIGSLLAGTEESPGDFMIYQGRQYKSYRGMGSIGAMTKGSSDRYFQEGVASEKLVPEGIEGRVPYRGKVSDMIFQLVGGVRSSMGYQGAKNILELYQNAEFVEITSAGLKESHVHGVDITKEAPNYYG

Biological target: HpIMPDH (Helicobacter pylori, UniProt P56088)
Assay: HpIMPDH enzyme inhibition assay (NADH fluorescence)
Format: biochemical
Details: Table S3

SMILES | IC50, inhibition profile of indole based compounds
O=C(Cn1cc(CCc2ccncc2)c2ccccc21)Nc1ccc(Br)cc1 | No inhibition

Same assay, conditions: read-out: IC50, inhibition profile of indole based compounds; Table S3

SMILES | IC50 [µM]
O=C(Cn1cc(C(=O)Nc2ccc3ccccc3c2)c2ccccc21)Nc1ccc(Br)cc1 | 30.9
O=C(Cn1cc(C(=O)O)c2ccccc21)Nc1ccc(Br)cc1 | 3.02
O=C(Cn1cc(CCc2ccncc2)c2ccccc21)Nc1ccc2ccccc2c1 | 5.63
O=C(Cn1cc(C(=O)O)c2ccccc21)Nc1ccc(Cl)cc1 | 14.4
O=C(Cn1cc(CCc2ccncc2)c2ccccc21)Nc1ccc(Cl)cc1 | 9.71
